Results on twelve compounds are retold here after PMC7424068, “Design, Synthesis, and Biological Evaluation of Novel Thiazolidinone-Containing Quinoxaline-1,4-di-N-oxides as Antimycobacterial and Antifungal Agents” (Frontiers in Chemistry, 2020).

Molecules are shown by their SMILES.

In this series the test system is VERO cell line. As to the kind of experiment: Cytotoxicity MTT assay. It counts as cell-based. As to conditions: selectivity index, VERO IC50 / Mtb H37Rv MIC. On the procedure: VERO cells (2 × 10^4 cells) were seeded into 96-well plates and incubated for 12 h. Serial dilutions of the compounds were mixed with the cell suspension in the plates. Both treated cells and blank and solvent controls were incubated for 72 h, followed by incubation with MTT (0.5 mg/mL) for another 4 h. The microplates were measured at 570 nm using a multimode reader (Infinite M200, Tecan). The percentage of viable cells was calculated as the mean with respect to the controls set to 100%. Triplicate wells were analyzed for each concentration. IC50 was defined as the concentration that reduced the viable cells by 50% compared to the untreated control cells. It was considered significant when the SI was more than 10.
(Formazan colour is commonly taken as a measure of viable cells.)
As for `O=C1CSC(c2c[n+]([O-])c3ccccc3[n+]2[O-])N1c1ccccc1` (stereo not drawn) [2a, 2-(3′-phenyl-4′(5H)-thiazolidinone)-quinoxaline-1,4-di-N-oxide], the “SI (IC50/MIC)” value came out at 23.

Consider `O=C1CSC(c2c[n+]([O-])c3ccccc3[n+]2[O-])N1c1ccc(F)cc1` (stereo not drawn) [2d, 2-(3′-P-fluorophenyl-4′(5H)-thiazolidinone)-quinoxaline-1,4-di-N-oxide], for which the “SI (IC50/MIC)” value was 39.2.

With `O=C1CSC(c2c[n+]([O-])c3ccccc3[n+]2[O-])N1c1ccc(Cl)cc1` (stereo not drawn) [2e, 2-(3′-P-chlorophenyl-4′(5H)-thiazolidinone)-quinoxaline-1,4-di-N-oxide], the “SI (IC50/MIC)” value worked out at 37.

For `Cc1ccc2c(c1)[n+]([O-])c(C1SCC(=O)N1c1ccc(F)cc1)c[n+]2[O-]` (stereo not drawn) [2j, 7-CH3-2-(3′-P-fluorophenyl-4′(5H)-thiazolidinone)-quinoxaline-1,4-di-N-oxide], the “SI (IC50/MIC)” value is 18.2.

As for `Cc1ccc2c(c1)[n+]([O-])c(C1SCC(=O)N1c1ccc(Cl)cc1)c[n+]2[O-]` (stereo not drawn) [2k, 7-CH3-2-(3′-P-chlorophenyl-4′(5H)-thiazolidinone)-quinoxaline-1,4-di-N-oxide], the “SI (IC50/MIC)” value was found to be 32.7.

For `O=C1CSC(c2c[n+]([O-])c3ccc(F)cc3[n+]2[O-])N1c1ccccc1` (stereo not drawn) [2q, 7-F-2-(3′-phenyl-4′(5H)-thiazolidinone)-quinoxaline-1,4-di-N-oxide], the “SI (IC50/MIC)” value came to 20.2.

For the compound `O=C1CSC(c2c[n+]([O-])c3ccc(F)cc3[n+]2[O-])N1c1ccc(F)cc1` (stereo not drawn) [2t, 7-F-2-(3′-P-fluorophenyl-4′(5H)-thiazolidinone)-quinoxaline-1,4-di-N-oxide], the “SI (IC50/MIC)” value came out at 64.7.

On to `O=C1CSC(c2c[n+]([O-])c3ccc(F)cc3[n+]2[O-])N1c1ccc(Cl)cc1` (stereo not drawn) [2u, 7-F-2-(3′-P-chlorophenyl-4′(5H)-thiazolidinone)-quinoxaline-1,4-di-N-oxide], for which the “SI (IC50/MIC)” value came out at 58.5.

Turning to `O=C1CSC(c2c[n+]([O-])c3ccc(Cl)cc3[n+]2[O-])N1c1ccccc1` (stereo not drawn) [2v, 7-Cl-2-(3′-phenyl-4′(5H)-thiazolidinone)-quinoxaline-1,4-di-N-oxide], the “SI (IC50/MIC)” value is on record as 38.

Turning to `Cc1ccc(N2C(=O)CSC2c2c[n+]([O-])c3ccc(Cl)cc3[n+]2[O-])cc1` (stereo not drawn) [2w, 7-Cl-2-(3′-P-methylphenyl-4′(5H)-thiazolidinone)-quinoxaline-1,4-di-N-oxide], the “SI (IC50/MIC)” value stood at 20.

Regarding `O=C1CSC(c2c[n+]([O-])c3ccc(Cl)cc3[n+]2[O-])N1c1ccc(F)cc1` (stereo not drawn) [2y, 7-Cl-2-(3′-P-fluorophenyl-4′(5H)-thiazolidinone)-quinoxaline-1,4-di-N-oxide], the “SI (IC50/MIC)” value stood at 68.5.

Turning to `O=C1CSC(c2c[n+]([O-])c3ccc(Cl)cc3[n+]2[O-])N1c1ccc(Cl)cc1` (stereo not drawn) [2z, 7-Cl-2-(3′-P-chlorophenyl-4′(5H)-thiazolidinone)-quinoxaline-1,4-di-N-oxide], the “SI (IC50/MIC)” value is 60.6.
